Measured values: patent US20250382354A1 (INSTITUTE FOR RESEARCH IN BIOMEDICINE IRB, published 2025)

What was measured:
Experiment in all cases: protein ELISA
[1] = target: T1, SARS-CoV-2 SD1-RBD Omicron BA.1 (SARS-CoV-2 Omicron BA.1)
T1 construct: domain: SD1-RBD

[2] = target: T2, SARS-CoV-2 SD1-RBD Omicron BA.2.75 (SARS-CoV-2 Omicron BA.2.75)
T2 construct: domain: SD1-RBD

[3] = target: T3, SARS-CoV-2 SD1-RBD Omicron BA.4/BA.5 (SARS-CoV-2 Omicron BA.4/BA.5)
T3 construct: domain: SD1-RBD

Row | Binder | EC50 [1] [µg/mL] | EC50 [2] [µg/mL] | EC50 [3] [µg/mL]
1 | rbd.113 (antibody, V domains shown) VH: EVQLVQSGAAVKKPGESLKISCKGSGYSFTNYWIGWVRQMPGKGLELMGIIYVGDSDTRYSPSFQGQVTISADKSITTAYLQWSSLKASDSAIYYCARQRCGGDCPFDLWGRGTLVTVSS VL: DIQMTQSPSTLSASVGDRVTITCRASQSINRWLAWYQQKPGKAPELLIYDASDLESGVPSRFSGSGSGTEFTLTISSLQPDDFATYYCQQYNSYWTFGQGTKVEIK | 0.0199 | 0.0511 | 0.0169
2 | rbd.117 (antibody, V domains shown) VH: EVQLVESGGGLVQPGGSLRLSCAASGFTFSRYAMSWVRQAPGKGLEWVSGLSGSGDSTYYADSVKGRFTISRDNSKKTLNLQMNSLRPEDTAVYYCAKGSRFGIDYFDCWGQGTLVTVSS VL: DIQMTQSPSTLSASVGDRVTITCRASQSISSWLAWYQLKPGKAPKLLIYDASSLESGVPSRFSGSGSGTEFTLTISSLQPDDFATYYCQQYNTYPFSFGPGTKVDIK | 0.0258 | 0.0522 | 0.0234
3 | rbd.123 (antibody, V domains shown) VH: QVQLVQSGAEVKKPGSSVKVSCKASGGAFRMYAISWVRQAPGQGLEWMGGIIPISGTATYTQNFQGRVTITVDRSTSTAYMELSSLRSDDTALYYCARGPRTGYDYFDFWGQGTLVTVSS VL: DIQMTQSPSTLSASVGDRVTITCRASQSISSWLAWYQQKPGKAPNLLIYDASSLESGVPSRFSGSGSGTEFTLTISSLQPDDFATYYCQQYKSYPYTFGQGTKLEIK | 0.00942 | 0.0136 | 0.00893
4 | rbd.143 (antibody, V domains shown) VH: EVQLVESGGGLVQPGGSLRLSCSASGFTFRRYAMHWVRQAPGKGLQHVSAISSDGDNTHYADSVKGRFTISRDNFKNTLHLQMSSLRPEDTAVYYCVKDPFSNFHYFDCWGQGILVTVSS VL: not shown | 0.0223 | 0.0375 | 0.0261
5 | rbd.110 (antibody, V domains shown) VH: EVQLVESGGGVVQPGRSLRLSCVASGFTFSRYGMHWVRQAPGKGLEWVATILYDGSDQYYAESVKGRFTISRDNSKNTLYLQMNSLREADTAVYYCAKTSYGYAYNFRLYFDYWGQGTLVTVSS VL: SYELTQPPSVSVAPGKTATITCGGNNIGSAGVHWYQQRPGQAPVLVVYDDSDRPSGIPERFSGSTSGNTATLTISRVEAGDEADYYCQVWDSNSAPVIFGGGTKLTVL | 0.0189 | 0.0525 | 0.015
6 | rbd.112 (antibody, V domains shown) VH: EVQLVQSGAEVKKSGESLKISCKSSGYSFTTYWIAWVRQMPGKGLEWMGIIYPGHSDARYSPSFQGHVTISADKSISTAYLQWRSLKASDTAIYYCARLSYYDVSNFYYYDSYWFDSWGLGTLVTVSS VL: QSVLTQPPSVSGAPGQRVTISCTGSSSNLGAGYDVHWYQQLPGTAPKLLIYANSNRPSGVPDRFSGSKSGTSASLAMTGLQAEDEADYYCQSYDSSLGGYVFGFGTKVTVL | 0.0289 | 0.0647 | 0.0213
